{"source": "PubChem BioAssay AID1811", "origin": "cited, not measured here", "test_in_all_cases": "PubChem AID 1811", "settings_in_all_cases": "PDB complex binding affinities from literature; Ki when reported", "key": {"HIV-1 protease I84V": {"target": "HIV-1 protease I84V"}, "HIV-1 protease v82f i84v": {"target": "HIV-1 protease v82f i84v"}, "HIV-1 protease V82F": {"target": "HIV-1 protease V82F"}}}
{"smiles": "O=C1N(Cc2ccc(CO)cc2)[C@H](Cc2ccccc2)[C@H](O)[C@@H](O)[C@@H](Cc2ccccc2)N1Cc1ccc(CO)cc1", "values": [{"measurement": "Ki", "setting": "HIV-1 protease I84V", "result": 20, "unit": "nM"}, {"measurement": "Ki", "setting": "HIV-1 protease v82f i84v", "result": 800, "unit": "nM"}, {"measurement": "Ki", "setting": "HIV-1 protease V82F", "result": 0.4, "unit": "nM"}]}
